Pooled drug test results. Numbers come from NIAID ChemDB, via PubChem.

All rows: tests in culture; organism: Streptococcus pneumoniae; endpoint: MIC

Neighbouring rows are from separate reports.

SMILES	strain or isolate	result
CC[C@H]1OC(=O)[C@H](C)C(=O)[C@H](C)[C@@H](O[C@@H]2O[C@H](C)C[C@H](N(C)C)[C@H]2O)[C@@]2(C)C[C@@H](C)C(=NC(C)=O)[C@H](C)C(OC/C(=C\C#Cc3ccccc3)CO2)[C@]1(C)O	7701 (erythromycin-resistant-MEF)	0.25 µg/mL
CC[C@H]1OC(=O)[C@@](C)(F)C(=O)[C@H](C)[C@@H](O[C@@H]2O[C@H](C)C[C@H](N(C)C)[C@H]2O)[C@@]2(C)C[C@@H](C)C(=NC(C)=O)[C@H](C)[C@@H](OC/C(=N\OCc3ccc(-c4nccs4)nc3)CO2)[C@]1(C)O	700906 (erythromycin A-resistant)	<0.06 µg/mL
CC[C@H]1OC(=O)[C@H](C)C(=O)[C@H](C)[C@@H](O[C@@H]2O[C@H](C)C[C@H](N(C)C)[C@H]2O)[C@@]2(C)C[C@@H](C)C(=NC(C)=O)[C@H](C)[C@@H](OC/C(=N\OCc3cccc(N)n3)CO2)[C@]1(C)O	49619 (erythromycin-susceptible)	<0.06 µg/mL
C[C@H]1NCc2cc(-c3c(F)cc4c(=O)c(C(=O)O)cn(C5CC5)c4c3OC(F)F)ccc21	R6-C11	0.03 µg/mL
CC[C@H]1OC(=O)[C@H](C)C(=O)[C@H](C)[C@@H](O[C@@H]2O[C@H](C)C[C@H](N(C)C)[C@H]2O)[C@@]2(C)C[C@@H](C)C(=NC(C)=O)[C@H](C)[C@@H](OC/C(=N\Oc3ccccc3)CO2)[C@]1(C)O	700906 (erythromycin-resistant-ERM)	0.5 µg/mL
CC[C@H]1OC(=O)[C@H](C)C(=O)[C@H](C)[C@@H](O[C@@H]2O[C@H](C)C[C@H](N(C)C)[C@H]2O)[C@@]2(C)C[C@@H](C)C(=NC(=O)CO)[C@H](C)C(OC/C(=C\C=C\c3ccccc3)CO2)[C@]1(C)O	49619 (erythromycin-susceptible)	<0.06 µg/mL
C=C1COC2[C@@H](C)C(=NC(C)=O)[C@H](C)C[C@@](C)(OC1)[C@H](O[C@@H]1O[C@H](C)C[C@H](N(C)C)[C@H]1O)[C@@H](C)C(=O)[C@@H](C)C(=O)O[C@H](CC)[C@@]2(C)O	7701 (erythromycin-resistant-MEF)	0.5 µg/mL
NC1CCN(c2ccc3c(=O)c(C(=O)O)cn(C4CC4)c3c2Cl)C1	D-1687	2 µg/mL
CC[C@H]1OC(=O)[C@H](C)C(=O)[C@H](C)[C@@H](O[C@@H]2O[C@H](C)C[C@H](N(C)C)[C@H]2O)[C@@]2(C)C[C@@H](C)C(=NC(C)=O)[C@H](C)[C@@H](OC/C(=N\OCc3ccc(C(N)=O)cc3)CO2)[C@]1(C)O	49619 (erythromycin-susceptible)	<0.06 µg/mL
CC[C@H]1OC(=O)[C@@](C)(F)C(=O)[C@H](C)[C@@H](O[C@@H]2O[C@H](C)C[C@H](N(C)C)[C@H]2O)[C@@]2(C)C[C@@H](C)C(=NC(C)=O)[C@H](C)[C@@H](OC/C(=N\OCc3ccc4nc(N)sc4c3)CO2)[C@]1(C)O	49619 (erythromycin A-susceptible)	<0.06 µg/mL
O=C(O)c1cn(C2CC2)c2cc(N3CCNCC3)ccc2c1=O	R6-G8	32 µg/mL
CC[C@H]1OC(=O)[C@H](C)C(=O)[C@H](C)[C@@H](O[C@@H]2O[C@H](C)C[C@H](N(C)C)[C@H]2O)[C@@]2(C)C[C@@H](C)C(=NC(=O)CN)[C@H](C)C(OC/C(=C\C=C\c3ccccc3)CO2)[C@]1(C)O	700906 (erythromycin-resistant-ERM)	16 µg/mL
CC[C@H]1OC(=O)[C@@](C)(F)C(=O)[C@H](C)[C@@H](O[C@@H]2O[C@H](C)C[C@H](N(C)C)[C@H]2O)[C@@]2(C)C[C@@H](C)C(=NC(C)=O)[C@H](C)[C@@H](OC/C(=N\OCc3ccc(-n4cccn4)nc3)CO2)[C@]1(C)O	49619 (erythromycin A-susceptible)	<0.06 µg/mL
CC[C@H]1OC(=O)[C@H](C)C(=O)[C@H](C)[C@@H](O[C@@H]2O[C@H](C)C[C@H](N(C)C)[C@H]2O)[C@@]2(C)C[C@@H](C)C(=NC(C)=O)[C@H](C)C(OC/C(=C\C=C\c3ccc(F)cc3)CO2)[C@]1(C)O	7701 (erythromycin-resistant-MEF)	0.5 µg/mL
CC[C@H]1OC(=O)[C@@](C)(F)C(=O)[C@H](C)[C@@H](O[C@@H]2O[C@H](C)C[C@H](N(C)C)[C@H]2O)[C@@]2(C)C[C@@H](C)C(=N)[C@H](C)[C@@H](OC/C(=N\OCc3ccc(-c4nccs4)nc3)CO2)[C@]1(C)O	49619 (erythromycin A-susceptible)	<0.06 µg/mL
CC[C@H]1OC(=O)[C@H](C)C(=O)[C@H](C)[C@@H](O[C@@H]2O[C@H](C)C[C@H](N(C)C)[C@H]2O)[C@@]2(C)C[C@@H](C)C(=NC(C)=O)[C@H](C)C(OC/C(=C\C=C\c3ccc(OC)cc3)CO2)[C@]1(C)O	700906 (erythromycin-resistant-ERM)	1 µg/mL
CC[C@H]1OC(=O)[C@H](C)C(=O)[C@H](C)[C@@H](O[C@@H]2O[C@H](C)C[C@H](N(C)C)[C@H]2O)[C@@]2(C)C[C@@H](C)C(=NC(C)=O)[C@H](C)[C@@H](OC/C(=N\Oc3ccc(-c4nnc(N)s4)cc3)CO2)[C@]1(C)O	700906 (erythromycin-resistant-ERM)	<0.06 µg/mL
CN1CCN(c2ccc3c(=O)c(C(=O)O)cn(C4CC4)c3c2)CC1	R6	32 µg/mL

Repeating the first 2 entries:

SMILES | strain or isolate | result
CC[C@H]1OC(=O)[C@H](C)C(=O)[C@H](C)[C@@H](O[C@@H]2O[C@H](C)C[C@H](N(C)C)[C@H]2O)[C@@]2(C)C[C@@H](C)C(=NC(C)=O)[C@H](C)C(OC/C(=C\C#Cc3ccccc3)CO2)[C@]1(C)O | 7701 (erythromycin-resistant-MEF) | 0.25 µg/mL
CC[C@H]1OC(=O)[C@@](C)(F)C(=O)[C@H](C)[C@@H](O[C@@H]2O[C@H](C)C[C@H](N(C)C)[C@H]2O)[C@@]2(C)C[C@@H](C)C(=NC(C)=O)[C@H](C)[C@@H](OC/C(=N\OCc3ccc(-c4nccs4)nc3)CO2)[C@]1(C)O | 700906 (erythromycin A-resistant) | <0.06 µg/mL